Data source: PubChem BioAssay AID504761 (Drosophila RNAi Screening Center, 2011)

Assay: 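Fly genes whose silencing reduces dengue virus type 2 infection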 (primary screen)
System: D.Mel-2 cells from Drosophila
Reagents: long dsRNA against Drosophila genes
Treatment: infection with dengue virus type 2; dose and infection time not stated
Read-out: 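Cells stained for dengue envelope protein and imaged; percent of infected cells per well on duplicate plates, ranked by infection, with stained nuclei counted for cell number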
Reading the numbers: infection score: higher = more virus-infected cells
Hit rule: 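Very low infection ranking in both replicate wells (chance probability at most 0.065), then a retest showing infection dropped 1.5-fold or more at p below 0.05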
Calls: active = confirmed: knock-down lowers infection; inactive = not picked or not confirmed
The screen tested about 22,000 reagents; this is an unselected part of those with a known target gene and a result. Over the whole deposit, 116 (0.52%) were called active. 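Calls depend on retest data that are not deposited; infection was ranked per plate without normalising between plates; the unit of the infection score is not given.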 Not all columns of the deposit are shown. Reagent sequences are not shown. Not stated in the record: the amount of reagent, the time to read-out.

gene knocked down | PubChem SID | infection score, replicate 1 | infection score, replicate 2 | call
rho-4 | SID104199553 | 5.79 | 13.1 | inactive
rho-4 | SID104199554 | 2.85 | 7.08 | inactive
CG5828 | SID104182692 | 3.28 | 11.1 | inactive
CG5828 | SID104203207 | 5.36 | 1.88 | inactive
CG32201 | SID104201919 | 3.01 | 15 | inactive
CG13603 | SID104194398 | 2.31 | 2.74 | inactive
pit | SID104196817 | 5.63 | 1.54 | inactive
pit | SID104202157 | 0.76 | 9.81 | inactive
pit | SID104206798 | 13.5 | 13.3 | inactive
Dok | SID104197996 | 1.3 | 6.52 | inactive
Dok | SID104202745 | 7.62 | 1.7 | inactive
CG5177 | SID104182616 | 2.56 | 1.54 | inactive
Tango11 | SID104183682 | 1.87 | 1.34 | inactive
Tango11 | SID104183684 | – | 0.45 | inactive
CG13526 | SID104183960 | 9.93 | 6.45 | inactive
CG14692 | SID104194707 | 5.05 | 1.55 | inactive
CG9698 | SID104196331 | 3.59 | – | inactive
CG1789 | SID104197932 | 7.09 | 4.75 | inactive
CG1789 | SID104207511 | 8.46 | 11.8 | inactive
inaD | SID104184486 | – | 8.41 | inactive
inaD | SID104205660 | 30.4 | 3.49 | inactive
LysB | SID104188465 | 2.13 | 5 | inactive
muc | SID104182624 | 2.95 | 5.55 | inactive
muc | SID104201556 | 1.87 | 1.42 | inactive
muc | SID104202909 | 5.44 | 2.22 | inactive
CG12744 | SID104185956 | 3.14 | 6.37 | inactive
Mks1 | SID104199489 | 3.37 | 1.56 | inactive
CG43861 | SID104182100 | 7.8 | 4.24 | inactive
CG30466 | SID104185348 | 2.71 | 1.12 | inactive
mRpS10 | SID104195349 | 2.94 | 19 | inactive
Mf | SID104195912 | 1.21 | 8.29 | inactive
T48 | SID104196670 | 0.9 | 1.45 | inactive
Hsepi | SID104184778 | 13 | 8.99 | inactive
Hsepi | SID104204633 | 16.6 | 5.92 | inactive
CG17304 (retired record) | SID104202607 | 2.49 | 3.62 | inactive
CG17304 (retired record) | SID104207411 | 8.54 | 12.6 | inactive
Rcd5 | SID104187972 | 5.62 | 5.56 | inactive
Rcd5 | SID104206332 | 9.56 | 21.3 | inactive
sd | SID104200162 | 11.5 | 22.6 | inactive
Larp7 | SID104198590 | 0.99 | 2.5 | inactive
Larp7 | SID104206231 | 4.35 | 7.93 | inactive
CG7140 | SID104191591 | 4.48 | 4.46 | inactive
dpr6 | SID104188797 | 7.9 | 1.6 | inactive
dpr6 | SID104189954 | 10.4 | 8.59 | inactive
dpr6 | SID104189955 | 2.97 | 1.79 | inactive
CG3902 | SID104190179 | 2.76 | 1.55 | inactive
CG3902 | SID104203110 | 3.66 | 2.7 | inactive
RtGEF | SID104183396 | 13.3 | 15.4 | inactive
RtGEF | SID104201743 | 4.62 | 2.64 | inactive
tut | SID104188701 | 3.71 | 3.01 | inactive
Alp12 | SID104182307 | 16.5 | 3.03 | inactive
CG33514 | SID104188263 | 13.4 | 16.4 | inactive
CG33514 | SID104188264 | 4.12 | 2.14 | inactive
CG33514 | SID104201354 | 1.6 | 5.39 | inactive
Mhc | SID104183159 | 4.31 | 1.14 | inactive
Mhc | SID104204503 | 12.6 | 1.86 | inactive
mh | SID104199960 | 1.62 | 0.96 | inactive
yip3 | SID104184516 | 9.15 | 10.5 | inactive
Ir48c | SID104185946 | 19.8 | 26.8 | inactive
Prosalpha7 | SID104187308 | 0.85 | 4.32 | inactive
Prosalpha7 | SID104207909 | 5.12 | 7.27 | inactive
CheB42a | SID104202240 | 3.97 | 1.46 | inactive
nullo | SID104198599 | 3.04 | 2.39 | inactive
nullo | SID104208204 | 5.8 | 2 | inactive
CG12289 | SID104189666 | 0.95 | 1.21 | inactive
CG15882 | SID104199527 | 1.07 | 0.91 | inactive
CG34459 | SID104186765 | 17.9 | 23.1 | inactive
dsb | SID104188334 | 2.86 | 2.34 | inactive
Dso1 | SID104201469 | 14.2 | 8.54 | inactive
Dso1 | SID104208315 | 13.8 | 3.16 | inactive
CG12081 | SID104197594 | 0.27 | 3.08 | inactive
vret | SID104195432 | 4.68 | 7.43 | inactive
lncRNA:roX1 | SID104201515 | 14.9 | – | inactive
CG17024 (retired record) | SID104182354 | 2.2 | 2.93 | inactive
